{"source": "paper PMC10115812", "about": "“Dephosphocholination by Legionella effector Lem3 functions through remodelling of the switch II region of Rab1b” (Nature Communications, 2023)", "binders": {"B1": {"name": "Rab1b_(S76(PC-Cl)) (domain or fragment)", "chain": "PEYDYLFKLLLIGDSGVGKSCLLLRFADDTYTESYISTIGVDFKIRTIELDGKTIKLQIWDTAGQERFRTITSSYYRGAHGIIVVYDVTDQESYANVKQWLQEIDRYASENVNKLLVGNKSDLTTKKVVDNTTAKEFADSLGIPFLETSAKNATNVEQAFMTMAAEIKKRMG", "modifications": "phosphocholine-chloroacetamide (PC-Cl, thiol-reactive, C3 linker) at S76"}, "B2": {"name": "Rab1b_(S76T(PC-Cl)) (domain or fragment)", "chain": "B1 chain with S74T"}}, "key": {"Lem3_(21-486, D190A)": {"molecular_target": "Lem3_(21-486, D190A) (Legionella pneumophila, UniProt Q5ZXN5 21-486, D190A)"}, "[1]": {"molecular_target": "Lem3_(D190A_C134S_C209S_C456S) (Legionella pneumophila, UniProt Q5ZXN5 21-486, D190A | C134S | C209S | C456S)"}, "[2]": {"molecular_target": "Lem3_(C134S_C209S_T391C_C395S_C456S) (Legionella pneumophila, UniProt Q5ZXN5 21-486, C134S | C209S | T391C | C395S | C456S)"}}, "note": "Numbering of substitutions follows the chain as printed. In names and notes the source's numbering stands.", "data": [{"binder": "B1", "values": [{"measurement": "binding result", "setting": "Lem3_(21-486, D190A)", "result": "binds"}, {"measurement": "binding result", "setting": "[1]", "result": "binds"}]}, {"binder": "B2", "values": [{"measurement": "binding result", "setting": "[2]", "result": "binds"}]}]}
